Measured values reported in paper PMC7722354, “7-Substituted 2-Nitro-5,6-dihydroimidazo[2,1-b][1,3]oxazines: Novel Antitubercular Agents Lead to a New Preclinical Candidate for Visceral Leishmaniasis” (Journal of Medicinal Chemistry, 2017).
≈ marks a conversion by molar mass, not a printed value.

Key:
[1] = test system: M. tb, strain H37Rv; experiment: LORA minimum inhibitory concentration assay (hypoxic); assay type: cell-based; conditions: Mycobacterium tuberculosis
[2] = test system: M. tb, strain H37Rv; experiment: MABA minimum inhibitory concentration assay (aerobic); assay type: cell-based; conditions: Mycobacterium tuberculosis, read-out: MIC MABA, aerobic

Compound | MIC [1] [µM] | MIC [2] [µM]
O=[N+]([O-])c1cn2c(n1)OC(COc1ccc(-c3ccc(F)cc3)nc1)CC2 (stereo not drawn) | 2.4 (≈ 0.889 µg/mL) | 0.23 (≈ 0.0852 µg/mL)
O=[N+]([O-])c1cn2c(n1)O[C@H](COc1ccc(-c3ccc(F)cc3)nc1)CC2 | 3.9 (≈ 1.44 µg/mL) | 1.1 (≈ 0.407 µg/mL)
O=[N+]([O-])c1cn2c(n1)O[C@@H](COc1ccc(-c3ccc(F)cc3)nc1)CC2 [compound 79, (7R)-7-({[6-(4-Fluorophenyl)pyridin-3-yl]oxy}methyl)-2-nitro-6,7-dihydro-5H-imidazo[2,1-b][1,3]oxazine] | 3.2 (≈ 1.19 µg/mL) | 0.11 (≈ 0.0407 µg/mL)
